Laboratory results from article PMC9091064, “Key dimer interface residues impact the catalytic activity of 3CLpro, the main protease of SARS-CoV-2” (2022).

Target: SARS-CoV-2 3CLpro E166A (SARS-CoV-2)
Assay: SEC

SARS-CoV-2 3CLpro E166A (enzyme)
stoichiometry N: 2
